A mixed list of measured activities; the numbers were collected in NIAID ChemDB.

All rows: tests in culture; organism: HIV-1; endpoint: inhibition

Rows are shuffled and stem from different studies.

structure	strain or isolate	mutations	cell line	method	conditions	tested at	result
CCCCCCCCCCCCCCCCOP(=O)(OC[C@H]1OC(O)[C@@H](O)[C@@H](O)[C@@H]1O)OC[C@H]1O[C@@H](n2cc(C)c(=O)[nH]c2=O)C[C@@H]1N=[N+]=[N-]	LAV-Bru		CEM	RT activity	22 d	1 µM	22%
Nc1ncnc2c1ncn2C1OC(COP(=O)(O)OC2C(O)C(COP(=O)(O)OC3C(O)C(CO)OC3n3cnc4c(N)ncnc43)OC2n2cnc3c(N)ncnc32)C(F)C1Cl			SupT1 + Sup-T1	syncytia		300 µM	50%
Nc1ncnc2c1ncn2[C@@H]1O[C@H](COP(=O)(O)O[C@@H]2[C@H](O)[C@@H](COP(=O)(O)O[C@@H]3[C@H](O)[C@@H](CO)O[C@H]3n3cnc4c(N)ncnc43)O[C@H]2n2cnc3c(N)ncnc32)[C@@H](O)[C@H]1O	IIIB		PBL	syncytia		300 µM	3%
C=C(C)[C@@H]1CC[C@]2(C(=O)O)CC[C@]3(C)C(CCC4[C@@]5(C)CC[C@H](OC(=O)CN(OC)C6O[C@H](CO)[C@H](O)[C@H](O)[C@H]6O)C(C)(C)C5CC[C@]43C)C12	IIIB			cytopathic effect		10 µM	3%
CCCCCCCCCCCCCCCCOP(=O)(OCCO[C@@H]1O[C@H](CO)[C@@H](O)[C@H](O)[C@@H]1O)OC[C@H]1O[C@@H](n2cc(C)c(=O)[nH]c2=O)C[C@@H]1N=[N+]=[N-]	LAV-Bru		CEM	RT activity	7 d	0.2 µM	81%
COc1ccc(Cl)c2[nH]cc(C(=O)C(=O)N3CCN(C(=O)c4ccc(N)cc4)C[C@H]3C)c12			HeLa + HELA CD4+/CCR5	luciferase		10 µM	>98%
C=C(C)[C@@H]1CC[C@]2(C(=O)O)CC[C@]3(C)C(CCC4[C@@]5(C)CC[C@H](OC(=O)CN(OC)C6OC[C@@H](O)[C@@H](O)[C@H]6O)C(C)(C)C5CC[C@]43C)C12	IIIB			cytopathic effect		10 µM	13%
Nc1ccccc1C(=O)N1CCN(C(=O)C(=O)c2c[nH]c3cccc(Cl)c23)CC1			HeLa + HELA CD4+/CCR5	luciferase		10 µM	75%
O=C1[C@@H](Cc2ccccc2)NC(=S)N1Cc1ccccc1			MT-4	cytopathic effect / XTT		10 µg/mL	29–46%
CCN(CC)C(=S)S	LAV		PBL	RT activity		0.00000075 µg/mL	67%
CC(=O)O[C@H]1C[C@@]2(C)[C@@H](C[C@@H](O)C3[C@]2(C)CC[C@H]2[C@H](C)[C@H](O)CC[C@]32C)/C1=C(/CCC=C(C)C)C(=O)O	IIIB		Macrophage + Monocytes/macrophages	p24		25 µg/mL	99%
C=C(C)[C@@H]1CC[C@]2(C(=O)NCCCCCCCC(=O)N[C@@H](CC(C)C)[C@@H](O)CC(=O)O)CC[C@]3(C)[C@H](CC[C@@H]4[C@@]5(C)CC[C@H](O)C(C)(C)[C@@H]5CC[C@]43C)[C@@H]12	LAI	GP41-E109D A109D	HeLa P4 + HeLa	syncytia		10 µM	>99%
O=C(C(=O)N1CCN(C(=O)c2ccccc2)CC1)c1c[nH]c2c(F)ccc(Br)c12			HeLa + HELA CD4+/CCR5	luciferase		10 µM	97%
N#Cc1csc(NC(=O)NCCc2ccccc2)n1			MT-4	RT activity		1 µg/mL	98%
CC(C)[C@H](NC(=O)[C@H](CO)NC(=O)[C@H](CS)NC(=O)CCC(=O)NCCCOCCOCCCN)C(=O)N[C@H](C(=O)N[C@@H](CS)C(=O)NCC(=O)O)[C@@H](C)O	p13		PBMC(PHA STIM.) + PBMC	p24		1.8 µM	74%
O=C1NC(=S)N[C@@H]1Cc1ccc(O)cc1			MT-4	cytopathic effect / XTT		1 µg/mL	0%
COc1ccc(Cl)c2[nH]cc(C(=O)C(=O)N3CCN(C(=O)c4ccccn4)C[C@H]3C)c12			HeLa + HELA CD4+/CCR5	luciferase		10 µM	>98%
CN1CCN(C(=S)NCCc2ccccc2)CC1			MT-4	cytopathic effect / XTT		100 µg/mL	0%
CC(C)[C@H](NC(=O)[C@H](CO)NC(=O)[C@@H](N)CS)C(=O)N[C@H](C(=O)N[C@@H](CS)C(=O)NCC(=O)O)[C@@H](C)O	BaL		PBMC(PHA STIM.) + PBMC	p24		1.32 µM	30%
COc1ccc(OC)c2c(C(=O)C(=O)N3CCN(C(=O)c4ccccc4)CC3)c[nH]c12			HeLa + HELA CD4+/CCR5	luciferase		10 µM	>98%
O=C1[C@@H](c2ccccc2)NC(=S)N1c1ccccc1			MT-4	cytopathic effect / XTT		10 µg/mL	0%
CC(=O)N1CCC(C(=O)N(CCCN2CCC(Cc3ccc(C(N)=O)cc3)CC2)c2ccc(C)c(Cl)c2)CC1	HTN Clinical isolates		PBMC	p24		0.015 µM	90%
O=C(C(=O)N1CCN(C(=O)c2ccc(Br)o2)CC1)c1c[nH]c2c(F)ccc(F)c12			HeLa + HELA CD4+/CCR5	luciferase		10 µM	>98%
CCCCN1C(=O)[C@@H](Cc2ccccc2)NC1=S			MT-4	RT activity		10 µg/mL	9%
C=C(C)[C@@H]1CC[C@]2(C(=O)O)CC[C@]3(C)C(CCC4[C@@]5(C)CC[C@H](OC(=O)CN(OC)[C@@H]6O[C@H](C(=O)O)[C@@H](O)[C@H](O)[C@H]6O)C(C)(C)C5CC[C@]43C)C12	IIIB			cytopathic effect		10 µM	9%
O=C(C(=O)N1CCN(C(=O)N2NC=CS2)CC1)c1c[nH]c2cccc(F)c12			HeLa + HELA CD4+/CCR5	luciferase		10 µM	88%
C=C(C)[C@@H]1CC[C@]2(C(=O)O)CC[C@]3(C)C(CCC4[C@@]5(C)CC[C@H](OC(=O)CN(OC)[C@@H]6OC[C@@H](O)[C@H](O)[C@H]6O)C(C)(C)C5CC[C@]43C)C12	IIIB			cytopathic effect		10 µM	4%
Cc1ccnc(NC(=O)NCCc2ccccc2)n1			MT-4	cytopathic effect / XTT		100 µg/mL	100%
C=C(C)[C@@H]1CC[C@]2(C(=O)O)CC[C@]3(C)C(CCC4[C@@]5(C)CC[C@H](OC(=O)CN(OC)[C@H]6O[C@H](CO)[C@@H](O)[C@H](OC)[C@H]6O)C(C)(C)C5CC[C@]43C)C12	IIIB			cytopathic effect		10 µM	23%
Nc1ncnc2c1ncn2C1OC(COP(=O)(O)OC2C(O)C(COP(=O)(O)OC3C(O)C(CO)OC3n3cnc4c(N)ncnc43)OC2n2cnc3c(N)ncnc32)C(F)C1N			SupT1 + Sup-T1	syncytia		300 µM	89%
C[C@@H]1CN(C(=O)c2ccccc2)CCN1C(=O)C(=O)c1c[nH]c2c(F)cccc12			HeLa + HELA CD4+/CCR5	luciferase		10 µM	>98%
CCOC(=O)/C=C/c1ccc(OC(=O)CCC(=O)Oc2c(C)c(C)c3c(c2C)CC[C@@](C)(CCC[C@H](C)CCC[C@H](C)CCCC(C)C)O3)cc1			U1/HIV-1 (TNF-alpha stimulated) + U1			10 µM	63%
C=C(C)[C@@H]1CC[C@]2(C(=O)O)CC[C@]3(C)C(CCC4[C@@]5(C)CC[C@H](OC(=O)CN(OC)C6OC[C@@H](O)[C@@H](O)[C@@H]6O)C(C)(C)C5CC[C@]43C)C12	IIIB			cytopathic effect		10 µM	12%
Cc1cn([C@H]2C[C@H](N=[N+]=[N-])[C@@H](COP(=O)(O)OCCO[C@H]3O[C@H](CO)[C@@H](O)[C@H](O)[C@@H]3O)O2)c(=O)[nH]c1=O	LAV-Bru		CEM	RT activity	7 d	25 µM	94%
O=C(NCCc1ccccc1)Nc1nc(-c2ccc(Br)cc2)cs1			MT-4	cytopathic effect / XTT		100 µg/mL	30%
O=P(O)(O)OP(=O)(O)OP(=O)(O)O	IIIB		H9	p24		100 µg/mL	0%

Repeating the first 3 entries:

{"structure": "CCCCCCCCCCCCCCCCOP(=O)(OC[C@H]1OC(O)[C@@H](O)[C@@H](O)[C@@H]1O)OC[C@H]1O[C@@H](n2cc(C)c(=O)[nH]c2=O)C[C@@H]1N=[N+]=[N-]", "strain or isolate": "LAV-Bru", "cell line": "CEM", "method": "RT activity", "conditions": "22 d", "tested at": "1 µM", "result": "22%"}
{"structure": "Nc1ncnc2c1ncn2C1OC(COP(=O)(O)OC2C(O)C(COP(=O)(O)OC3C(O)C(CO)OC3n3cnc4c(N)ncnc43)OC2n2cnc3c(N)ncnc32)C(F)C1Cl", "cell line": "SupT1 + Sup-T1", "method": "syncytia", "tested at": "300 µM", "result": "50%"}
{"structure": "Nc1ncnc2c1ncn2[C@@H]1O[C@H](COP(=O)(O)O[C@@H]2[C@H](O)[C@@H](COP(=O)(O)O[C@@H]3[C@H](O)[C@@H](CO)O[C@H]3n3cnc4c(N)ncnc43)O[C@H]2n2cnc3c(N)ncnc32)[C@@H](O)[C@H]1O", "strain or isolate": "IIIB", "cell line": "PBL", "method": "syncytia", "tested at": "300 µM", "result": "3%"}

a–b is a range or a potency band. Inhibition is in % at the dose shown (toxicity tests: loss of growth or viability). Blank or dashed fields: not listed here.